Anti-infective test results gathered from many reports (values: NIAID ChemDB through PubChem).

All rows: whole-cell or culture tests; agent: Mouse cytomegalovirus; measure: EC50

ECn: concentration that inhibits the pathogen or its effect by n%. An empty or dashed field is not shown. Conditions beyond the fields shown may differ between rows.

| structure | strain or isolate | cells | method | value |
|---|---|---|---|---|
| O=C(Nc1ccc(NC(=S)Nc2cc(C(F)(F)F)cc(C(F)(F)F)c2)cc1)c1csnn1 | SMITH | HFF | virus yield | >20 µM |
| CCCCCCCCCCCCOCCCOP1(=O)CO[C@@H](Cn2ccc(N)nc2=O)CO1 | SMITH | MEF | plaque count | 0.013 µM |
| CCCCCCCCCCCCCCCCCCOCCCOP1(=O)CO[C@@H](Cn2ccc(N)nc2=O)CO1 | - | MEF | plaque count | 0.05 µM |
| Nc1nc2c(ncn2C[C@]2(CO)C[C@H]2CO)c(=O)[nH]1 | SMITH | C1271 | cytopathic effect | 15 µg/mL |
| Nc1nc(N)c2ncn(C=C3CC3CO)c2n1 | - | MEF | plaque count | 0.6 µM |
| CCCCCCCCCCCCCCCCCOC[C@H](COP1(=O)CO[C@@H](Cn2ccc(N)nc2=O)CO1)OCc1ccccc1 | - | MEF | plaque count | 0.03 µM |
| Nc1nc2c(ncn2COC(CO)CO)c(=O)[nH]1 | Smith (resistant) | HFF | plaque count | 27.5 µM |
| Cc1nc2ccc(CN(C)c3ccc(C(=O)N[C@@H](CCC(=O)O)C(=O)O)s3)cc2c(=O)[nH]1 | - | - | virus yield | 0.006 µM |
| NC(=S)c1cn(COCCO)c2ncnc(N)c12 | SMITH | HFF | plaque count | 16 µM |
| O=C(NCc1ccc(Cl)cc1)c1c[nH]c2c(F)cc(CCCO)cc2c1=O | SMITH | - | plaque count | 1.7 µM |
| CCCC(=O)OCC(COC(=O)CCC)OCn1cnc2c(=O)[nH]c(N)nc21 | - | HFF | plaque count | 4.4 µg/mL |
| OC[C@H]1O[C@@H](n2c(Br)nc3cc(Cl)c(Cl)cc32)[C@H](O)[C@@H]1O | SMITH (WILD TYPE) | HFF | plaque count | 31 µM |
| CN(C)c1cccc2c(S(=O)(=O)Nc3ccc(NC(=O)C(C)(C)CO)cc3)cccc12 | Smith (resistant) | - | plaque count | 28.3 µM |
| O=C(NCc1ccc(Cl)cc1)c1c[nH]c2c(F)cccc2c1=O | SMITH | - | plaque count | 6.8 µM |
| CC(C)Nc1nc2cc(Cl)c(Cl)cc2n1[C@H]1O[C@@H](CO)[C@H](O)[C@@H]1O | - | HFF | plaque count | >11 µM |
| Nc1nc2c(ncn2COC(CO)CCP(=O)([O-])O)c(=O)[nH]1 | SMITH | 3T3 | cytopathic effect | 10 µg/mL |
| CN(C)c1cccc2c(S(=O)(=O)Nc3ccc(NC(=O)C(C)(C)CO)cc3)cccc12 | WILD TYPE | - | plaque count | 0.049 µM |
| COC(=O)[C@H](C)NP(=O)(OC[C@H]1C/C1=C/n1cnc2c(=O)[nH]c(N)nc21)Oc1ccccc1 | - | MEF | plaque count | 3.3 µM |
| CN(Cc1cnc2nc(N)nc(N)c2n1)c1ccc(C(=O)N[C@@H](CCC(=O)O)C(=O)O)cc1 | - | HFF | plaque count | 0.22 µM |
| CCCCCCCCCCCCCCCCCCOC[C@H](COP(=O)(O)CO[C@H](CO)Cn1ccc(N)nc1=O)OCc1ccccc1 | - | MEF | plaque count | 0.005 µM |
| Nc1nc2c(ncn2COC(CO)CCP(=O)(O)O)c(=O)[nH]1 | SMITH | MRC-5 | plaque count | 1.3 µM |
| CCOP(=O)(O)COCOn1cnc2c(=O)[nH]c(N)nc21 | SMITH | - | - | 0.51 µg/mL |
| NC1=NCCN1CC(=O)O | - | 3T3 | cytopathic effect | 16100 µM |
| CCCCCCCCCCCCCCCCCCOC[C@H](COP(=O)(O)CO[C@H](CO)Cn1ccc(N)nc1=O)OCc1ccccc1 | SMITH | MEF | plaque count | 0.0045 µM |
| Cn1cc(C(=O)NCc2ccc(Cl)cc2)c(=O)c2cc(CN3CCOCC3)ccc21 | - | HFF | plaque count | 1.4 µM |
| CCCCCCCCCCCCOCCCOP(=O)(O)CO[C@H](CO)Cn1ccc(N)nc1=O | - | MEF | plaque count | 0.01 µM |
| Nc1nc2c(ncn2COC(CO)CO)c(=O)[nH]1 | SMITH | 10T1/2 | plaque count | 3.7 µM |
| CCCCCCCCCCCCCCCCOCCCOP(=O)(O)OCC(CO)OCn1cnc2c(=O)[nH]c(N)nc21 | - | MRC-5 | plaque count | 105.8 µM |
| Nc1nc2c(ncn2COC(CO)CO)c(=O)[nH]1 | - | HFF | plaque count | 2.9 µM |
| CCCCCCCC/C=C\CCCCCCCOCCCOP1(=O)CO[C@@H](Cn2ccc(N)nc2=O)CO1 | - | MEF | plaque count | 0.007 µM |
| CC(C)(CF)C(=O)Nc1cccc(NS(=O)(=O)c2ccc(-c3noc(-c4ccccc4)n3)cc2)c1 | SMITH | 3T3 | cytopathic effect | 0.03 µM |
| Nc1ccn(C[C@H]2COP(=O)(O)CO2)c(=O)n1 | - | MRC-5 | plaque count | 0.39 µM |
| O=C(NCc1ccc(Cl)cc1)c1c[nH]c2c(F)cccc2c1=O | - | - | plaque count | 6.8 µM |
| Nc1ccn(C[C@@H](CO)OCP(=O)(O)O)c(=O)n1 | SMITH | 3T3-L1 | plaque count | 0.03 µg/mL |
| CCOP(=O)(O)CCC(CO)OCn1cnc2c(=O)[nH]c(N)nc21 | SMITH | MRC-5 | plaque count | 17 µg/mL |
| CCCCCCCCCCCCCCCCCOC[C@H](COP1(=O)CO[C@@H](Cn2ccc(N)nc2=O)CO1)OCc1ccccc1 | SMITH | MEF | plaque count | 0.025 µM |
| COc1nc(N)nc2c1ncn2C=C1CC1CO | - | MEF | plaque count | 0.4 µM |
| N/C(=N\O)c1cc(O)c(O)c(O)c1 | Drug-resistant | - | plaque count | 11.59 µM |
| CC(=O)OCC(CO)OCn1cnc2c(=O)[nH]c(N)nc21 | - | HFF | plaque count | 3.4 µg/mL |
| CCCCCCCC/C=C\CCCCCCCOCCOP1(=O)CO[C@@H](Cn2ccc(N)nc2=O)CO1 | SMITH | MEF | plaque count | 0.001 µM |
| CCCCCCCCCCCCCCCCCCOCCCOP1(=O)CO[C@@H](Cn2ccc(N)nc2=O)CO1 | - | MRC-5 | plaque count | 0.004 µM |
| CCCCCCCCCCCCCCCCCCOCCCOP1(=O)CO[C@@H](Cn2ccc(N)nc2=O)CO1 | SMITH | MEF | plaque count | 0.05 µM |
| Nc1nc(Cl)c2ncn(/C=C3/C[C@H]3CO)c2n1 | - | MEF | plaque count | 0.27 µM |

Repeating the first 4 entries:

{"structure": "O=C(Nc1ccc(NC(=S)Nc2cc(C(F)(F)F)cc(C(F)(F)F)c2)cc1)c1csnn1", "strain or isolate": "SMITH", "cells": "HFF", "method": "virus yield", "value": ">20 µM"}
{"structure": "CCCCCCCCCCCCOCCCOP1(=O)CO[C@@H](Cn2ccc(N)nc2=O)CO1", "strain or isolate": "SMITH", "cells": "MEF", "method": "plaque count", "value": "0.013 µM"}
{"structure": "CCCCCCCCCCCCCCCCCCOCCCOP1(=O)CO[C@@H](Cn2ccc(N)nc2=O)CO1", "cells": "MEF", "method": "plaque count", "value": "0.05 µM"}
{"structure": "Nc1nc2c(ncn2C[C@]2(CO)C[C@H]2CO)c(=O)[nH]1", "strain or isolate": "SMITH", "cells": "C1271", "method": "cytopathic effect", "value": "15 µg/mL"}